Results deposited as PubChem BioAssay AID624099 (ICCB-Longwood, 2012).

- Screen: 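Host factors E2 relies on to silence an HPV18 LCR reporter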 (primary screen)
- Cell system: human C33A cervical carcinoma cells (HPV-negative) stably expressing BPV1 E2 and an HPV18 LCR luciferase reporter
- Reagents: siRNA pool against human genes, 40 nM
- Timing: 72 h
- Detection: 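Per-well luciferase luminescence, z-scored on each plate against the plate mean and SD with control wells left out, then averaged across three replicate plates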
- Direction: mean z-score and z-score: higher = stronger reporter signal, weaker E2 silencing
- Hit rule: 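Hit if mean z-score reaches 2 and two or more of three replicate z-scores also reach 2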
Shown is one part, drawn at random, of about 21,000 reagents. 497 of all reagents (2.4%) were called active. 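Higher z means weaker E2 silencing; only reporter increases were scored, and knock-downs that hurt cell survival may mask genuine repressor factors.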 The numbers tell different reagents against one gene apart.

Gene	reagent	mean z-score	z-score, replicate A	z-score, replicate B	z-score, replicate C	activity call
H2BC12	1	0.68	0.65	0.65	0.75	inactive
NEK4	1	0.23	0.08	-0.01	0.62	inactive
LOC400969 (retired record)	1	0.4	0.31	0.58	0.3	inactive
COL1A1	1	0.3	0.4	0.28	0.23	inactive
GOLGA2P11	1	-1.05	-1.13	-1.3	-0.71	inactive
TPX2	1	0.56	0.56	0.47	0.66	inactive
DTNBP1	1	-0.02	-0.02	-0.02	-0.01	inactive
SSU72L1	1	0.13	0.07	0.35	-0.03	inactive
LOC401222 (retired record)	1	0.17	0.1	0.32	0.09	inactive
APOD	1	0.11	-0.06	-0.18	0.58	inactive
PFN1	1	-0.42	-0.42	-0.35	-0.48	inactive
RWDD4	1	-1.74	-1.27	-2.07	-1.89	inactive
CACNA1D	1	0	-0.37	0.08	0.29	inactive
LOC402251 (retired record)	1	0.23	0.23	0.09	0.36	inactive
DHRS9	1	-1.12	-1.08	-1	-1.29	inactive
ENTPD5	1	0.04	0.46	-0.16	-0.19	inactive
USP15	1	-0.09	-0.16	-0.15	0.05	inactive
PLTP	1	-0.14	-0.01	-0.08	-0.32	inactive
KRTAP19-4	1	0.01	0.08	0.01	-0.07	inactive
TNKS	1	-0.08	-0.1	-0.08	-0.06	inactive
DRG2	1	0.64	1.11	0.32	0.48	inactive
SPTBN5	1	1.14	1.84	0.98	0.58	inactive
TET2	1	-1.01	-1.44	-1.06	-0.53	inactive
TET2	2	1.15	1.59	1.21	0.65	inactive
IQCN	1	-0.58	-0.73	-0.29	-0.71	inactive
LOC401506 (retired record)	1	-0.81	-0.7	-0.89	-0.85	inactive
SCGB2B2	1	-0.92	-0.74	-1.19	-0.84	inactive
KIF5A	1	0.85	0.98	0.81	0.75	inactive
P2RY13	1	-0.95	-1.07	-0.8	-0.98	inactive
HPN	1	1.57	1.75	1.7	1.24	inactive
LOC400541	1	1.5	1.34	1.52	1.63	inactive
DCST2	1	0.39	0.43	0.37	0.36	inactive
FHL5	1	0.82	1.04	0.88	0.54	inactive
CBLC	1	0.64	0.37	0.62	0.94	inactive
PADI1	1	-1.39	-1.88	-1.51	-0.79	inactive
ZHX2	1	0.93	1.14	0.69	0.94	inactive
LOX	1	-0.1	-0.23	0.12	-0.18	inactive
PRAMEF5	1	0.57	0.63	0.7	0.38	inactive
CTPS2	1	-0.79	-0.82	-0.93	-0.62	inactive
RAC3	1	0.37	0.51	0.44	0.16	inactive
LOC400705 (retired record)	1	0.6	0.89	0.08	0.82	inactive
ST13	1	0.18	0.28	0.12	0.15	inactive
SIN3B	1	1.24	1.3	1.31	1.09	inactive
TRPA1	1	-0.13	0.02	-0.04	-0.36	inactive
PPM1G	1	0.31	0.36	0.35	0.23	inactive
MANBAL	1	0.41	0.59	0.31	0.31	inactive
RRN3P1	1	-0.6	-0.38	-0.8	-0.63	inactive
PIGO	1	-0.21	-0.28	-0.29	-0.06	inactive
ATP8B3	1	-0.97	-0.73	-0.95	-1.24	inactive
PCCA	1	0.03	-0.08	0.22	-0.03	inactive
LCN10	1	-0.03	0	-0.21	0.14	inactive
GOLGA8DP	1	-0.24	-0.21	-0.17	-0.34	inactive
FRA10AC1	1	0.29	0.37	0.25	0.25	inactive
NPC1	1	-0.34	-0.21	-0.43	-0.37	inactive
ARCN1	1	-1.49	-1.61	-1.56	-1.29	inactive
ERCC5	1	0.47	0.41	0.71	0.29	inactive
LOC402382 (retired record)	1	1.19	0.85	1.03	1.67	inactive
LTA4H	1	-0.86	-0.9	-0.84	-0.82	inactive
CCDC160	1	-0.02	-0.08	0.13	-0.1	inactive
USP21	1	-0.02	-0.06	0.15	-0.13	inactive
GPR12	1	0.11	0.11	0.37	-0.14	inactive
ZNF268	1	-0.41	-0.17	-0.51	-0.54	inactive
ZNF705A	1	0.58	0.72	0.21	0.81	inactive
NUTM1	1	-0.21	-0.31	0.01	-0.31	inactive
SH2D1B	1	-0.74	-0.65	-0.78	-0.78	inactive
PLAGL2	1	-0.02	-0.18	-0.17	0.28	inactive
IKBIP	1	1.32	1.47	1.41	1.08	inactive
LOC402336 (retired record)	1	-1.44	-2.12	-1.29	-0.9	inactive
SYTL1	1	0.48	0.67	0.36	0.41	inactive
TBCE	1	-0.81	-0.19	-1.04	-1.2	inactive
KBTBD13	1	1.26	1.44	1.23	1.1	inactive
CSNK1E	1	-0.3	-0.28	-0.61	0	inactive
MAPKAPK5	1	0.7	0.69	1.12	0.28	inactive
